Anti-infective test results gathered from many reports (values: NIAID ChemDB through PubChem).

All rows: tests on isolated targets; agent: Hepatitis C virus

Inhibition is in % at the dose shown (toxicity tests: loss of growth or viability). An empty or dashed field is not shown. ICn is the concentration giving n% inhibition. Conditions beyond the fields shown may differ between rows. a–b is a range or a potency band.

SMILES	protein	endpoint	tested at	value
COc1ccc(-c2cc(-c3ccc(Cl)cc3)nc3cc(C(=O)O)nn23)cc1Cl	RNA-dependent RNA polymerase	IC50		>10 µM
CNC(=O)c1c(-c2ccc(F)cc2)oc2cc(-c3cc(COC)on3)c(OC)cc12	Nonstructural protein 5B	IC50		≤0.5 µM
Cc1cc(C(F)(F)F)n2nc(C(=O)O)cc2n1	RNA-dependent RNA polymerase	IC50		>10 µM
O=C(O)c1nc(-c2ccc(Cl)s2)[nH]c(=O)c1O	HCV polymerase	IC50		<25 µM
COc1cccc(COc2ccc(-c3nc4cc(C(=O)O)[nH]n4c(=O)c3C3CCCCC3)cc2)c1	RNA-dependent RNA polymerase	IC50		1–10 µM
O=C(Nc1cscc1-c1nc(C(=O)O)c(O)c(=O)[nH]1)NS(=O)(=O)c1cccc(Cl)c1Cl	HCV polymerase	IC50		<25 µM
C=Cc1cc2oc(-c3ccc(F)cc3)c(C(=O)NC)c2cc1OC(C)C	Nonstructural protein 5B	IC50		≤0.5 µM
O=C(O)c1ccc2c(c1)nc(-c1ccc3cc(-c4ccccc4)cnc3c1)n2C1CCCCC1	NS5B polymerase	inhibition	100 µM	98.13%
CNC(=O)c1c(-c2ccc(F)cc2)oc2cc(Br)c(OC(C)C)cc12	Nonstructural protein 5B	IC50		≤0.5 µM
COc1ccc(-c2ccc(Cl)cc2)c(-c2ccc3cc(-c4nc5cc(C(=O)O)ccc5n4CC4CC4)ccc3n2)c1	NS5B polymerase	inhibition	100 µM	99.26%
O=C(Nc1ccsc1-c1nc(C(=O)OC2OC(=O)c3ccccc32)c(O)c(=O)[nH]1)c1ccccc1	HCV polymerase	IC50		<50 µM
CC[C@H](C)C(NC(=O)c1ccc2c(c1)nc(-c1ccc3nc(-c4ccccc4)cnc3c1)n2C1CCCCC1)C(=O)O	NS5B polymerase	inhibition	100 µM	97.15%
CCOC(=O)c1cc2nc(-c3ccc(Cl)cc3)cc(-c3ccc(OC)cc3)n2n1	RNA-dependent RNA polymerase	IC50		>10 µM
Cc1oc(-c2ccc(Cl)cc2)cc1-c1ccc2cc(-c3nc4cc(C(=O)O)ccc4n3C3CCCCC3)ccc2n1	NS5B polymerase	inhibition	33 µM	99.73%
O=C(Cc1ccsc1)Nc1ccsc1-c1nc(C(=O)O)c(O)c(=O)[nH]1	HCV polymerase	IC50		<25 µM
O=C(O)c1ccc(COc2ccc(-c3cnc4c(-c5nn[nH]n5)cnn4c3C3CCCCC3)cc2)cc1	RNA-dependent RNA polymerase	IC50		<1 µM
O=C(O)c1ccc2c(c1)nc(-c1ccc3nc(-c4ccccc4)c(-c4ccccc4)nc3c1)n2C1CCCCC1	NS5B polymerase	inhibition	100 µM	98.06%
O=C(O)c1cc2nc(-c3ccoc3)c(C3CCCCC3)c(=O)n2[nH]1	RNA-dependent RNA polymerase	IC50		<1 µM
CCn1c(-c2ccc3nc(-c4cc(OC)ccc4-c4ccc(Cl)cc4)ccc3c2)nc2cc(C(=O)O)ccc21	NS5B polymerase	inhibition	100 µM	101%
CNC(=O)c1c(-c2ccc(F)cc2)oc2cc(-c3c(C)n[nH]c3C)c(OC)cc12	Nonstructural protein 5B	IC50		≤0.5 µM
O=C(Nc1ccsc1-c1nc(C(=O)O)c(O)c(=O)[nH]1)OCC(c1ccccc1)c1ccccc1	HCV polymerase	IC50		<25 µM
Clc1ccc(COc2ccc(-c3cnc4c(-c5nn[nH]n5)cnn4c3C3CCCCC3)cc2)cc1Cl	RNA-dependent RNA polymerase	IC50		1–10 µM
Cc1ccc(-c2nc(C(=O)O)c(O)c(=O)[nH]2)s1	HCV polymerase	IC50		<25 µM
O=C(NC(Cc1c[nH]c2ccc(O)cc12)C(=O)O)c1ccc2c(c1)nc(-c1ccc3nc(-c4cc(C(=O)N5CCCC5)ccc4-c4ccc(Cl)cc4)cnc3c1)n2C1CCCCC1	NS5B polymerase	inhibition	33 µM	99.07%
O=C(N[C@@H](Cc1ccc(O)cc1)C(=O)O)c1cc2nc(-c3ccco3)c(C3CCCCC3)c(=O)n2[nH]1	RNA-dependent RNA polymerase	IC50		<1 µM
O=C(Nc1ccsc1-c1nc(C(=O)O)c(O)c(=O)[nH]1)NS(=O)(=O)c1ccccc1Cl	HCV polymerase	IC50		<25 µM